Pooled drug test results. Numbers come from NIAID ChemDB, via PubChem.

Common to all: whole-cell or culture tests; organism: Mycobacterium kansasii

MIC50, MIC90 and the like: level of inhibition, or share of isolates inhibited. Rows are shuffled and stem from different studies. Blank or dashed fields: not listed here. Two numbers with a dash give a range or band.

SMILES | strain or isolate | read-out | read by | setting | value
O=C(Oc1ccc(Cl)cc1C(=O)Nc1cccc(Cl)c1)c1ccccc1 | 235/80 | MIC | broth dilution | 7 d | 2 µM
O=C(Oc1cc(Cl)ccc1C(=O)Nc1cccc(Br)c1)c1cnccn1 | 6509/96 | MIC | - | 7 d | 2 µM
N/C(=N\N=C\c1ccccc1)SCc1ccccc1 | ATCC 12478 | MIC | broth dilution | 14 d | 62.5 µM
O=C(Oc1cc(Cl)ccc1C(=O)Nc1cccc(Br)c1)c1ccccc1 | 235/80 | MIC | broth dilution | 7 d | 2 µM
CC(C)[C@H](NC(=O)OCc1ccccc1)c1cnc(-c2ccccc2)[nH]1 | My 235/80 | MIC | - | 21 d | 62.5 µM
NNC(=O)c1ccncc1 | 6509/96 | MIC | - | 21 d | 4–8 µM
O=C(Nc1cccc(Br)c1)c1cc(Cl)ccc1OS(=O)(=O)c1ccccc1 | 6509/96 | MIC | - | 7 d | 8 µM
O=C(Oc1cc(Cl)ccc1C(=O)Nc1ccc(F)cc1)c1ccccc1 | 6509/96 | MIC | broth dilution | 14 d | 8 µM
O=C(NC1CCCCC1)N(C(=O)c1cnccn1)C1CCCCC1 | 6509/96 | MIC | - | 14 d | 500 µM
O=C(Nc1ccc(Br)cc1)c1cc(Cl)ccc1OS(=O)(=O)c1ccccc1 | 6509/96 | MIC | - | 21 d | 16 µM
COc1ccc2oc(=O)n(-c3cccc(F)c3)c(=S)c2c1 | My 235/80 | MIC | - | 14 d | 32 µM
O=C(NNC(=O)c1ccncc1)Nc1ccc(F)cc1Br | My 235/80 | MIC100 | broth dilution | 14 d | >125 µM
O=C(Oc1cc(Cl)ccc1C(=O)Nc1cccc(F)c1)c1cnccn1 | 235/80 | MIC | - | 7 d | 4 µM
O=C(N[C@@H](Cc1ccccc1)c1cnc(-c2ccc([N+](=O)[O-])cc2)[nH]1)OCc1ccccc1 | My 6509/96 | MIC | - | 21 d | 16 µM
O=C(Nc1cccc(F)c1)c1ccc(Cl)cc1OS(=O)(=O)c1ccccc1 | 6509/96 | MIC | - | 21 d | 32 µM
O=C(Oc1cc(Cl)ccc1C(=O)Nc1ccc(C(F)(F)F)cc1)c1ccccc1 | 6509/96 | MIC | broth dilution | 14 d | 2 µM
O=C(Nc1ccc(Cl)cc1)c1ccc(Cl)cc1OS(=O)(=O)c1ccccc1 | 6509/96 | MIC | - | 7 d | 8 µM
O=C(Oc1ccc(Cl)cc1C(=O)Nc1cccc(Cl)c1)c1cnccn1 | 6509/96 | MIC | - | 14 d | 2 µM
COc1cccc(CS/C(N)=N/N=C/c2cc(Cl)ccc2O)c1 | ATCC 12478 | MIC | broth dilution | 14 d | 32 µM
O=C(Oc1ccc(Cl)cc1C(=O)Nc1ccc(Cl)cc1)c1cnccn1 | 235/80 | MIC | - | 21 d | 4 µM
CCCCCCc1ccc(NC(=O)NNC(=O)c2ccncc2)cc1 | My 235/80 | MIC100 | broth dilution | 21 d | 125 µM
Cc1ccc2oc(=O)n(-c3cccc(Cl)c3)c(=S)c2c1 | My 235/80 | MIC | - | 14 d | 2 µM
O=C(Oc1cc(Cl)ccc1C(=O)Nc1ccc(C(F)(F)F)cc1)c1cnccn1 | 6509/96 | MIC | - | 7 d | 1 µM
Cc1ccc2oc(=S)n(-c3ccc(Br)cc3)c(=S)c2c1 | My 235/80 | MIC | - | 14 d | 4 µM
N/C(=N\N=C\c1ccccc1)SCc1ccc(C(F)(F)F)cc1 | 6509/96 | MIC | broth dilution | 14 d | 32 µM
O=C(NNC(=O)c1ccncc1)Nc1ccc(F)c(C(F)(F)F)c1 | My 235/80 | MIC100 | broth dilution | 21 d | 125 µM
O=C(OCc1ccccc1)N1CCC[C@H]1c1cnc(-c2ccc([N+](=O)[O-])cc2)[nH]1 | My 6509/96 | MIC | - | 14 d | 62.5 µM
CCCCCCCCc1ccc(NC(=O)NNC(=O)c2ccncc2)cc1 | My 6509/96 | MIC100 | broth dilution | 14 d | 250 µM
O=C(Nc1ccc(C(F)(F)F)cc1)c1ccc(Cl)cc1OS(=O)(=O)c1ccccc1 | 6509/96 | MIC | - | 7 d | 4 µM
O=c1oc2ccc(F)cc2c(=S)n1-c1ccc(C(F)(F)F)cc1 | My 235/80 | MIC | - | 21 d | 8 µM
O=C(Nc1ccc(Br)cc1)c1ccc(Br)cc1OS(=O)(=O)c1ccccc1 | 6509/96 | MIC | - | - | 8 µM
O=C(OCc1ccccc1)N1CCC[C@H]1c1cnc(-c2ccccc2)[nH]1 | My 235/80 | MIC | - | 14 d | 62.5 µM
N/C(=N\N=C\c1ccccc1O)SCc1cccc(Cl)c1 | 6509/96 | MIC | broth dilution | 21 d | 32 µM
O=C(N[C@@H](Cc1ccccc1)c1cnc(-c2ccccc2)[nH]1)OCc1ccccc1 | My 6509/96 | MIC | - | 7 d | >250 µM
COC(=O)c1cnccn1 | 6509/96 | MIC | - | 7 d | 500 µM
CC(C)C[C@H](NC(=O)OCc1ccccc1)c1cnc(-c2ccccc2)[nH]1 | My 6509/96 | MIC | - | 14 d | >125 µM
Cc1ccc(CS/C(N)=N/N=C/c2cc(Cl)ccc2O)cc1 | ATCC 12478 | MIC | broth dilution | 14 d | 62.5 µM
O=C(Oc1cc(Cl)ccc1C(=O)Nc1ccc(Br)cc1)c1ccccc1 | 235/80 | MIC | broth dilution | 21 d | 4 µM
FC(F)(F)c1ccc(-n2c(=S)oc3ccc(Cl)cc3c2=S)cc1 | My 235/80 | MIC | - | 21 d | 16 µM
O=C(Nc1ccc(F)cc1)c1ccc(Cl)cc1OS(=O)(=O)c1ccccc1 | 6509/96 | MIC | - | 7 d | 16 µM
N/C(=N\N=C\c1cc(Cl)ccc1O)SCc1ccc(Cl)cc1 | 6509/96 | MIC | broth dilution | 21 d | 32 µM

The first 4 rows once more:

| SMILES | strain or isolate | read-out | read by | setting | value |
|---|---|---|---|---|---|
| O=C(Oc1ccc(Cl)cc1C(=O)Nc1cccc(Cl)c1)c1ccccc1 | 235/80 | MIC | broth dilution | 7 d | 2 µM |
| O=C(Oc1cc(Cl)ccc1C(=O)Nc1cccc(Br)c1)c1cnccn1 | 6509/96 | MIC | - | 7 d | 2 µM |
| N/C(=N\N=C\c1ccccc1)SCc1ccccc1 | ATCC 12478 | MIC | broth dilution | 14 d | 62.5 µM |
| O=C(Oc1cc(Cl)ccc1C(=O)Nc1cccc(Br)c1)c1ccccc1 | 235/80 | MIC | broth dilution | 7 d | 2 µM |